# In-gel DMS probing of monomeric and dimeric HIV-1 RNA

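Mutant RNA libraries with 1G, 2G or 3G starts, with or without cap, were folded at 37 °C for 30 min. High salt was 300 mM KCl and 5 mM MgCl2, low salt 40 mM KCl and 0.1 mM MgCl2; monomer and dimer were parted on a native gel. Each band was probed in the gel with DMS (170 mM, 15 min, 37 °C), with ethanol as control, and sequenced.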

The 5' region of HIV-1 NL4-3 RNA (positions 1-437):
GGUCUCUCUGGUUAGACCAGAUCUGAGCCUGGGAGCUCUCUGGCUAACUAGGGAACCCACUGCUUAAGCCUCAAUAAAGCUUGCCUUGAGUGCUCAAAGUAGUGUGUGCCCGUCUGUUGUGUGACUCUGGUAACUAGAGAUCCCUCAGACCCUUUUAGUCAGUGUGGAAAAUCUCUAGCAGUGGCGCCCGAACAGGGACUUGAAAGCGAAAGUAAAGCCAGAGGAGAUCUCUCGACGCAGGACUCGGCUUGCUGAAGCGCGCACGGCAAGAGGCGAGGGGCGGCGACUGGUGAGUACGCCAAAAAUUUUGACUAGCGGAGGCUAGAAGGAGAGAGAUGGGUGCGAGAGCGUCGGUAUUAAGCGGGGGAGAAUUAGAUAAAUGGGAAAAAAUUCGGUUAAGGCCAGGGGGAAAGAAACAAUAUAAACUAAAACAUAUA

Scale: normalised reactivity, A and C only; low values point to paired or protected bases, higher values to unpaired ones.
One numbering serves 1G, 2G and 3G.
A position is written with its base.

position | domain | 1G uncapped low-salt dimer | 1G uncapped low-salt monomer | 2G capped high-salt dimer | 2G capped high-salt monomer
A334 | AUG | 0.44 | 0.57 | 0.38 | 0.48
A336 | AUG | 0.89 | 1.04 | 0.74 | 0.79
C343 | AUG | 0.32 | 0.23 | 0.33 | 0.48
A345 | none | 1.24 | 1.22 | 1.24 | 1.25
A347 | none | 0.27 | 0.32 | 0.26 | 0.26
C349 | none | 0.29 | 0.30 | 0.35 | 0.37
C352 | none | 0.37 | 0.36 | 0.40 | 0.41
A356 | none | 1.01 | 1.14 | 0.92 | 0.96
A359 | none | 0.54 | 0.35 | 0.58 | 0.52
A360 | none | 0.53 | 0.33 | 0.61 | 0.54
C362 | none | 0.25 | 0.21 | 0.39 | 0.46
A368 | none | 0.83 | 0.99 | 0.78 | 0.94
A370 | none | 0.49 | 0.46 | 0.51 | 0.55
A371 | none | 0.91 | 0.87 | 0.91 | 0.97
A374 | none | 0.54 | 0.43 | 0.50 | 0.49
A376 | none | 0.74 | 0.71 | 0.74 | 0.76
A378 | none | 0.23 | 0.22 | 0.20 | 0.22
A379 | none | 0.60 | 0.56 | 0.59 | 0.60
A380 | none | 0.83 | 0.83 | 0.79 | 0.85
A385 | none | 0.53 | 0.51 | 0.52 | 0.56
A386 | none | 1.30 | 1.26 | 1.26 | 1.36
A387 | none | 0.24 | 0.23 | 0.23 | 0.24
A388 | none | 0.09 | 0.09 | 0.08 | 0.08
A389 | none | 0.17 | 0.17 | 0.17 | 0.16
A390 | none | 0.86 | 0.84 | 0.88 | 0.96
C393 | none | 0.54 | 0.61 | 0.61 | 0.68
A398 | none | 0.25 | 0.29 | 0.20 | 0.17
A399 | none | 0.39 | 0.44 | 0.26 | 0.22
C402 | none | 0.04 | 0.05 | 0.04 | 0.03
C403 | none | 0.03 | 0.05 | 0.03 | 0.03
A404 | none | 0.23 | 0.22 | 0.27 | 0.21
A410 | none | 0.36 | 0.32 | 0.41 | 0.46
A411 | none | 0.80 | 0.69 | 0.82 | 0.91
A412 | none | 0.51 | 0.47 | 0.49 | 0.52
A414 | none | 0.48 | 0.44 | 0.49 | 0.48
A415 | none | 0.22 | 0.23 | 0.25 | 0.22
A416 | none | 0.42 | 0.47 | 0.44 | 0.46
C417 | none | 0.80 | 0.87 | 0.80 | 0.85
A418 | none | 0.62 | 0.61 | 0.63 | 0.66
A419 | none | 0.44 | 0.41 | 0.47 | 0.50
A421 | none | 0.38 | 0.34 | 0.36 | 0.38
A423 | none | 0.45 | 0.38 | 0.42 | 0.42
A424 | none | 0.37 | 0.32 | 0.36 | 0.33
A425 | none | 0.51 | 0.49 | 0.50 | 0.53
C426 | none | 0.73 | 0.74 | 0.73 | 0.80
A428 | none | 0.10 | 0.10 | 0.09 | 0.11
A429 | none | 0.70 | 0.63 | 0.70 | 0.76
A430 | none | 0.57 | 0.51 | 0.54 | 0.56
A431 | none | 0.64 | 0.57 | 0.59 | 0.61
C432 | none | 0.90 | 0.85 | 0.87 | 0.93
A433 | none | 0.70 | 0.69 | 0.71 | 0.77
A435 | none | 0.48 | 0.48 | 0.48 | 0.51
A437 | none | 0.03 | 0.05 | 0.03 | 0.03

Reference: Ye et al. 2022, doi:10.1038/s41594-022-00746-2.